B1: Keratin, type I cytoskeletal 28 (protein, UniProt A6BLY7 1-462, looked up)
Keratin, type I cytoskeletal …: MSLRFSGGSRHVGIQSGSLRPPSGGAGFAGSSVAGGSVAGSGFSWALGGTLGSAPGGSHATGALGNVSGVCFIGSEGGLLSGNEKVTMQNLNNRLASYLDNVKALEEANSELERKIKTWHEKYGPGSCRGLDRDYSKYHLTIEDLKSKIISSTAANANIILQIDNARLAADDFRLKYENELTLHQNVEADINGLRRVLDELTLCRTDQELQYESLSEEMTYLKKNHEEEMKVLQCAAGGNVNVEMNAAPGVDLTVLLNNMRAEYEALAEQNRRDAEAWFQEKSATLQQQISNDLGAATSARTELTELKRSLQTLEIELQSLSATKHSLECSLAETEGNYCSQLAQIQAQISALEEQLHQVRTETEGQKLEHEQLLDIKAHLEKEIETYCRLIDGDENSCSVSKGFESGTSGNSPKDVSKTTLVKTVVEEIDQRGKVLSSRIHSIEEKMSKMSNGKAEQRVPF
B2: Complement component C8 gamma chain (protein, UniProt Q8VCG4 21-202, looked up)
Complement component C8 gamma …: QRTRKPIGSTSPISTIQAQVNFSAQKFAGTWLLVAVGSSCRFLQEQGHRAEATTLHAAPQGAAMAVSTFRKLDGICWQVRQLFENTGVPGRFLFQVSRARGPVHMVVAETDYQSFAILYLEQGRKLSVKLYVRSLPVNDSVLDVFERRVREANLTEDQILFFPKYGFCETADQLHILNEVPR
B3: Lysosomal alpha-mannosidase (protein, UniProt O09159 50-1013, looked up)
Lysosomal alpha-mannosidase: AGYKTCPPTKPGMLNVHLLPHTHDDVGWLKTVDQYYYGILSDVQHASVQYILDSVVSSLLEKPTRRFIYVEMAFFSRWWKQQTSATQDAVRNLVRQGRLEFVNGGWVMNDEAATHYGAIVDQMTLGLRFLQDTFGSDGLPRVAWHIDPFGHSREQASLFAQMGFDGFFLGRIDYQDKLNRKKKLRMEELWRASDSLEPPAADLFTGVLPNNYNPPKYLCWDVLCTDPPVVDNPRSPEFNAKTLVNYFLKLASSQKGFYRTNHTVMTMGSDFHYENANMWFKNMDKLIRLVNAQQVNGSLVHVLYSTPTCYLWELNKANLTWTVKEDDFFPYADGPHMFWTGYFSSRPALKRYERLSYNFLQVCNQLEALVGPEANVGPYGSGDSAPLQEAMAVLQHHDAVSGTARQNVVNDYARQLAAGWGPCEVLVSNALARLSHYKQNFSFCRELNISICPVSQTSERFQVTLYNPLGRKVDQMVRLPVYEGNFIVKDPHDKNISSNVVMVPSYYSETYQWELLFPASVPALGFSTYSVAKMSDLNHQAHNLLSRPRKHKSHHVLVIENKYMRATFDSGTGLLMKIENLEQNLSLPVSQGFFWYNASVGDEESSQASGAYIFRPNVGKPIPVSRWAQISLVKTALVQEVHQNFSAWCSQVIRLYKGQRHLELEWTVGPIPVRDDWGKEVISRFDTPMKTKGQFFTDSNGREILKRRDDYRPTWTLNQTEPVAGNYYPVNTRIYITDGQMQLTVLTDRSQGGSSLQDGSLELMVHRRLLVDDDRGVSEPLLETDTGDKVRGRHLVLLSSVSDAAARHRLLAEQEVLAPQVVLSLGGSSPYHSRATPKTQFSGLRQELPPQVHLLTLARWGPKMLLLRLEHQFALKEDSDRNLSSPVTLNVQNLFQTFTINYLQETTLAANQPLSRASRLKWMTNTGPTSYPEPSKLDPTSVTLKPMEIRTFLASVQWQEHRPA
B4: Extracellular matrix protein 1 (protein, UniProt Q61508 20-559, looked up)
Extracellular matrix protein 1: ASEGAFKASDQREMTPERLFQHLHEVGYAAPPSPPQTRRLRVDHSVTSLHDPPLFEEQREVQPPSSPEDIPVYEEDWPTFLNPNVDKAGPAVPQEAIPLQKEQPPPQVHIEQKEIDPPAQPQEEIVQKEVKPHTLAGQLPPEPRTWNPARHCQQGRRGVWGHRLDGFPPGRPSPDNLKQICLPERQHVIYGPWNLPQTGYSHLSRQGETLNVLETGYSRCCRCRSDTNRLDCLKLVWEDAMTQFCEAEFSVKTRPHLCCRLRGEERFSCFQKEAPRPDYLLRPCPVHQNGMSSGPQLPFPPGLPTPDNVKNICLLRRFRAVPRNLPATDAIQRQLQALTRLETEFQRCCRQGHNHTCTWKAWEGTLDGYCERELAIKTHPHSCCHYPPSPARDECFAHLAPYPNYDRDILTLDLSRVTPNLMGQLCGSGRVLSKHKQIPGLIQNMTIRCCELPYPEQACCGEEEKLAFIENLCGPRRNSWKDPALCCDLSPEDKQINCFNTNYLRNVALVAGDTGNATGLGEQGPTRGTDANPAPGSKEE
B5: Ras-related protein Rap-1b (protein, UniProt Q99JI6 1-181, looked up)
Ras-related protein Rap-1b: MREYKLVVLGSGGVGKSALTVQFVQGIFVEKYDPTIEDSYRKQVEVDAQQCMLEILDTAGTEQFTAMRDLYMKNGQGFALVYSITAQSTFNDLQDLREQILRVKDTDDVPMILVGNKCDLEDERVVGKEQGQNLARQWNNCAFLESSAKSKINVNEIFYDLVRQINRKTPVPGKARKKSSC
B6: Carboxypeptidase B2 (protein, UniProt Q9JHH6 114-422, looked up)
Carboxypeptidase B2: ASASYYEQYHSLNEIYSWIEVITEQHPDMLQKIYIGSSFEKYPLYVLKVSGKEQRIKNAIWIDCGIHAREWISPAFCLWFIGYVTQFHGKENLYTRLLRHVDFYIMPVMNVDGYDYTWKKNRMWRKNRSAHKNNRCVGTDLNRNFASKHWCEKGASSSSCSETYCGLYPESEPEVKAVADFLRRNIDHIKAYISMHSYSQQILFPYSYNRSKSKDHEELSLVASEAVRAIESINKNTRYTHGSGSESLYLAPGGSDDWIYDLGIKYSFTIELRDTGRYGFLLPERYIKPTCAEALAAISKIVWHVIRNT
B7: Keratin, type I cytoskeletal 42 (protein, UniProt Q6IFX2 1-452, looked up)
Keratin, type I cytoskeletal …: MASTTSVRQFSTSGSVKGLCAPGMGFSRMSSVRVGGACRAPSLLGGGSCGNMSVTSSRFSAGLGGGYGGGYTCSLGGGFGSSFGVSDALLGGSEKETMQNLNDRLATYLDRVRALEEANADLEVKIREWYKKQGPGPARDYSPYFKTIEDLRNKILAATIDNASIVLQIDNARLAADDFRTKYETELNLRMSVEADINGLRRVLDELTLARADLEMQIESLKEELAYLRKNHEEEMNALRGQVGGDVNVEMDAAPGVDLSRILNEMRDQYEKMAEKNRKDAEEWFFTKTEELNREVATNTEALQSSRTEITELRRSVQNLEIELQSQLSMKASLENSLAETEARYGAQLAQLQGLISSVEQQLCELRCDMERQNHEYQVLLDVKTRLEQEIATYRRLLEGEDAHLATQYSSSLASQPSREGMVTSRQVRTIVEEVQDGKVVSSREQVHRSTH
B8: Pigment epithelium-derived factor (protein, UniProt P97298 20-417, looked up)
Pigment epithelium-derived …: QNVPSSSEGSPVPDSTGEPVEEEDPFFKVPVNKLAAAVSNFGYDLYRLRSSASPTGNVLLSPLSVATALSALSLGAEHRTESVIHRALYYDLITNPDIHSTYKELLASVTAPEKNLKSASRIVFERKLRVKSSFVAPLEKSYGTRPRILTGNPRVDLQEINNWVQAQMKGKIARSTREMPSALSILLLGVAYFKGQWVTKFDSRKTTLQDFHLDEDRTVRVPMMSDPKAILRYGLDSDLNCKIAQLPLTGSMSIIFFLPLTVTQNLTMIEESLTSEFIHDIDRELKTIQAVLTVPKLKLSFEGELTKSLQDMKLQSLFESPDFSKITGKPVKLTQVEHRAAFEWNEEGAGSSPSPGLQPVRLTFPLDYHLNQPFLFVLRDTDTGALLFIGRILDPSST
B9: Keratin, type I cytoskeletal 16 (protein, UniProt Q9Z2K1 1-469, looked up)
Keratin, type I cytoskeletal …: MATCSRQFTSSSSMKGSCGIGGGSSRMSSILAGGSCRAPSTCGGMSVTSSRFSSGGVCGIGGGYGGSFSSSSFGGGLGSGFGGRFDGFGGGFGAGLGGGLGGGIGDGLLVGSEKVTMQNLNDRLATYLDKVRALEEANRDLEVKIRDWYQRQRPTEIKDYSPYFKTIEDLKSKIIIATQENAQFTLQIDNARLAADDFRTKYENELFLRQSVEGDINGLRKVLDELTLSRADLEMQIENLREELAFLKKNHEEEMLALRGQTGGDVNVEMDAAPGVDLSRILNEMRDQYEQMAEKNRRDVEAWFLRKTEELNKEVASNSDLIQSNRSEVAELRRVFQGLEIELQSQLSMKASLENSLEETKGRYCMQLSQIQGLISSVEEQLAQLRCEMEQQSQEYNILLDVKTRLEQEIATYRRLLDGENIHSSSQHSSGQSYSSREVFSSSSRQPRSILKEQGSTSFSQSQSQSSRD
B10: Alpha-2-HS-glycoprotein (protein, UniProt P29699 19-345, looked up)
Alpha-2-HS-glycoprotein: APQGTGLGFRELACDDPEAEQVALLAVDYLNNHLLQGFKQVLNQIDKVKVWSRRPFGVVYEMEVDTLETTCHALDPTPLANCSVRQLTEHAVEGDCDFHILKQDGQFRVMHTQCHSTPDSAEDVRKLCPRCPLLTPFNDTNVVHTVNTALAAFNTQNNGTYFKLVEISRAQNVPLPVSTLVEFVIAATDCTAKEVTDPAKCNLLAEKQHGFCKANLMHNLGGEEVSVACKLFQTQPQPANANAVGPVPTANAALPADPPASVVVGPVVVPRGLSDHRTYHDLRHAFSPVASVESASGETLHSPKVGQPGAAGPVSPMCPGRIRHFKI
B11: Fibrinogen beta chain (protein, UniProt Q8K0E8 35-481, looked up)
Fibrinogen beta chain: GHRPVDRRKEEPPSLRPAPPPISGGGYRARPAKATANQKKVERRPPDAGGCLHADTDMGVLCPTGCTLQQTLLNQERPIKSSIAELNNNIQSVSDTSSVTFQYLTLLKDMWKKKQAQVKENENVINEYSSILEDQRLYIDETVNDNIPLNLRVLRSILEDLRSKIQKLESDISAQMEYCRTPCTVSCNIPVVSGKECEEIIRKGGETSEMYLIQPDTSIKPYRVYCDMKTENGGWTVIQNRQDGSVDFGRKWDPYKKGFGNIATNEDAKKYCGLPGEYWLGNDKISQLTRMGPTELLIEMEDWKGDKVKAHYGGFTVQNEASKYQVSVNKYKGTAGNALMDGASQLVGENRTMTIHNGMFFSTYDRDNDGWVTTDPRKQCSKEDGGGWWYNRCHAANPNGRYYWGGLYSWDMSKHGTDDGVVWMNWKGSWYSMRRMSMKIRPFFPQQ

Test system: coronal proteins on NPs
Parameters: species or system mouse
Conditions: for V5 Sera_Nanoparticles Quantitative Value (Normalized Total Spectra): HBPE-NPs incubated 1 h with IAV day 5 (V5) mouse sera, 20:1 NP:sera, centrifuged and washed; for V5 Sera Alone (Control) Quantitative Value (Normalized Total Spectra): IAV day 5 (V5) mouse sera alone, no NPs (sera-only control)

Molecule | V5 Sera_Nanoparticles Quantitative Value (Normalized Total Spectra) | V5 Sera Alone (Control) Quantitative Value (Normalized Total Spectra)
B1 | 1.0879 | 5.5514
B2 | 1.0879 | 2.7757
B3 | 1.0879 | 0
B4 | 1.0879 | 3.7009
B5 | 1.0879 | 1.8505
B6 | 1.0879 | 0.9252
B7 | 1.0879 | 0.9252
B8 | 1.0879 | 6.4766
B9 | 1.0879 | 1.8505
B10 | 46.781 | 32.383
B11 | 1.0879 | 2.7757
